Anti-infective test results gathered from many reports (values: NIAID ChemDB through PubChem).

Shared fields: whole-cell or culture tests; species: HIV-1

ECn: concentration that inhibits the pathogen or its effect by n%. Rows are shuffled and stem from different studies. An empty or dashed field is not shown.

structure,method,strain or isolate,cell line,read-out,setting,mutations,value
COc1ccc(N(C)C(=O)[C@H](Cc2ccccc2)NC(=O)Cn2c(=O)c(=O)n(CC(=O)N[C@@H](Cc3ccccc3)C(=O)N(C)c3ccc(OC)cc3)c3ccccc32)cc1,luciferase,NL4-3,MT-2,EC50,,,0.16 µM
CC(C)=CCOc1cc(NC(=S)c2ccoc2C)ccc1Cl,cytopathic effect / XTT,UC10-resistant (RT Y181C K101E),CEM + CEM-SS,EC50,,RT-Y181C K101E,>2 µM
Cc1ccsc1C(=S)Nc1ccc(Cl)c(C(=O)OC2CCCCC2)c1,syncytia,,CEM,EC50,,RT-L100I,1.6 µM
CC(C)CN(C[C@@H](O)[C@H](Cc1ccccc1)NC(=O)OC(C)(C)C)S(=O)(=O)c1ccc2nonc2c1,p24,IIIB,CEM,EC50,,,<10 µM
CCOCn1c(Cc2ccccc2)c(CC)c(=O)[nH]c1=O,syncytia,IIIB,CEM,EC50,,,0.016 µM
[2H]C([2H])([2H])NC(=O)c1c(O)c2ncc(Cc3ccc(F)cc3)c3c2n(c1=O)C[C@H](CN(CC)CC)O3,ATP / luminescence,IIIB,MT-2,EC50,,,0.021 µM
O=C(C(=O)N1CCN(C(=O)c2ccco2)CC1)c1c[nH]c2c(F)ccc(F)c12,luciferase,,HeLa + HELA CD4+/CCR5,EC50,,,<10 µM
CC(C)=CCOc1cc(NC(=S)c2ccsc2C)ccc1Cl,cytopathic effect / XTT,UC10/costatolide-resistant (RT K103N),CEM + CEM-SS,EC50,,RT-K103N,1 µM
CC(C)[C@H](NC(=O)OCc1ccccn1)C(=O)N[C@@H](Cc1ccccc1)[C@@H](O)C[C@H](Cc1ccccc1)NC(=O)OCc1cccnc1,p24,NL4-3,MT-4,EC95,,PR-L10R M46I L63P V82T,3 µM
Nc1nc(NC2CC2)c2ncn([C@H]3C=C[C@@H](CO)C3)c2n1,p24,NL4-3 WT,PBMC,EC50,,,<2.5 µM
CCSCC1=C(C(=O)Nc2ccc(Cl)c(C(=O)OC(C)C)c2)SCCO1,syncytia,IIIB,CEM,EC50,,,3 µg/mL
Nc1nc(=O)n([C@H]2C=C[C@@H](CO)O2)cc1F,p24,XM-Q151M,PBMC,EC50,,RT-A62V V75I F77C F116Y Q151M,<26 µM
CCCc1cc(=O)oc2c3c(c4c(c12)OC(C)(C)CC4)O[C@@H](C)[C@H](C)[C@@H]3O,XTT,NL4-3,CEM + CEM-SS,EC50,,RT-K103N,3.8 µM
CCOC(=O)c1cc(NC(=O)C2=C(C)OCCS2)ccc1Cl,syncytia,PYR-resistant (RT Y181C),CEM,EC50,,RT-Y181C,>10 µg/mL
O=C(C(=O)N1CCN(C(=O)c2cc3ccccc3[nH]2)CC1)c1c[nH]c2cccc(Cl)c12,luciferase,,HeLa + HELA CD4+/CCR5,EC50,,,<10 µM
Clc1cc(CN2CCCNCCNCCCNCC2)cc(Cl)n1,p24,IIIB X4,HOS-CD4-CCR5 + HOS,EC50,,,3.2 µM
CC(C)CN(C[C@@H](O)[C@H](Cc1ccccc1)NC(=O)O[C@H]1CO[C@H]2OCC[C@H]21)S(=O)(=O)c1ccc2c(c1)OCO2,p24,NL4-3 (NFV5),MT-4,EC50,,L10F/K20T/D30N/K45I/A71B/V77I,0.0024 µM
CCOCn1c(Sc2cc(C)cc(C)c2)c(CC)c(=O)[nH]c1=S,syncytia,IIIB,CEM,EC50,,,0.003 µM
COc1ccc(N(C)C(=O)[C@H](Cc2ccccc2)NC(=O)/C=C/C(=O)N[C@@H](Cc2ccccc2)C(=O)N(C)c2ccc(OC)cc2)cc1,luciferase,NL4-3,MT-2,EC50,,,0.78 µM
CCc1cccc2c(C(=O)C(=O)N3CCN(C(=O)c4ccccc4)C[C@@H]3C)c[nH]c12,luciferase,,HeLa + HELA CD4+/CCR5,EC50,,,<10 µM
CC(C)CN(C[C@@H](O)[C@H](Cc1ccccc1)NC(=O)OCc1ccccc1)S(=O)(=O)c1ccc2nonc2c1,p24,IIIB,CEM,EC50,,,<10 µM
Cc1occc1C(=S)Nc1ccc(Cl)c(C(=O)OC(C)C)c1,syncytia,,CEM,EC50,,RT-E138K,1.7 µM
CN(C(=O)[C@H](Cc1ccccc1)NC(=O)c1ccnc(N[C@@H](Cc2ccccc2)C(=O)N(C)c2ccc3scnc3c2)n1)c1ccc2scnc2c1,luciferase,NL4-3,MT-2,EC50,,,1.86 µM
CCc1c(Cc2cc(C)cc(C)c2)n(COCCO)c(=O)[nH]c1=O,syncytia,IIIB (TIBO 82150) (RT-L100I),CEM,EC50,,RT-L100I,0.17 µM
Cc1ccsc1C(=O)Nc1ccc(Cl)c(C(=O)OC2CCCCC2)c1,syncytia,,CEM,EC50,,RT-Y181C,13 µM
CCOCn1c(Sc2ccccc2)c(C(C)C)c(=O)[nH]c1=S,syncytia,IIIB,CEM,EC50,,RT-E138K,0.09 µM
[2H]C([2H])([2H])CNC(=O)[C@@]1(C)Cn2c(=O)c(C(=O)NC)c(O)c3ncc(Cc4ccc(F)cc4)c(c32)O1,ATP / luminescence,IIIB,MT-2,EC50,,,0.017 µM
COc1ccc(-n2ccnc2[C@H](Cc2ccccc2)NC(=O)c2cccc(C(=O)N[C@@H](Cc3ccccc3)c3nccn3-c3ccc(OC)cc3)c2)cc1,luciferase,NL4-3,MT-2,EC50,,,2.8 µM
Cc1occc1C(=S)Nc1ccc(Cl)c(OC(=O)OC(C)C)c1,syncytia,,CEM,EC50,,RT-E138K,1.8 µM
CCC1=C(C(=O)Nc2ccc(Cl)c(C(=O)OC(C)C)c2)SCCO1,syncytia,TIBO-resistant (RT L100I),CEM,EC50,,RT-L100I,0.6 µg/mL
C[C@H](Cn1cnc2c(N)ncnc21)OCP(=O)(O)O,recombinant virus assay,Clinical isolate,MT-2,EC50,,T69ins/K70R/M184V/K219Q,0.0172 µM
O=C(C(=O)N1CCN(C(=O)N2NC=CS2)CC1)c1c[nH]c2cccc(F)c12,luciferase,,HeLa + HELA CD4+/CCR5,EC50,,,<10 µM
CC(C)OC(=O)c1cc(NC(=S)c2cccs2)ccc1Cl,syncytia,,CEM,EC50,,RT-Y181C,0.756 µM
CNC(=O)c1c(O)c2ncc(Cc3ccc(F)cc3)c3c2n(c1=O)C[C@](C)(C(=O)N1CCCC1)O3,ATP / luminescence,IIIB,MT-2,EC50,,,0.022 µM
O=C(C(=O)N1CCN(C(=O)c2ccccc2)CC1)c1c[nH]c2cc(Cl)c(F)cc12,luciferase,,HeLa + HELA CD4+/CCR5,EC50,,,<10 µM
CC(C)c1c(Sc2ccccc2)n(COCc2ccccc2)c(=O)[nH]c1=O,syncytia,IIIB,CEM,EC50,,,0.003 µM
C=CCN(C(=O)[C@H](Cc1cc(F)cc(F)c1)NC(=O)c1nccnc1C(=O)N[C@@H](Cc1cc(F)cc(F)c1)C(=O)N(CC=C)c1ccc(OC)cc1)c1ccc(OC)cc1,luciferase,NL4-3,MT-2,EC50,,,3.73 µM
O=C(C(=O)N1CCN(C(=O)c2ccccc2)CC1)c1c[nH]c2cccc(Cl)c12,RT activity,BRU,MT-2,EC50,,,<10 µM
CC(=O)Nc1ccc(S(=O)(=O)N(CC(C)C)C[C@@H](O)[C@H](Cc2ccccc2)NC(=O)[C@H](CC(N)=O)NC(=O)c2ccc3ccccc3n2)cc1,p24,IIIB,CEM,EC50,,,<1 µM
CCc1c(Sc2ccccc2)n(COCc2ccccc2)c(=O)[nH]c1=O,syncytia,IIIB,CEM,EC50,,RT-Y181C,0.41 µM
CC(C)CN(C[C@@H](O)[C@H](Cc1ccccc1)NC(=O)O[C@@H]1CCOC1)S(=O)(=O)c1cc(Cl)c(Cl)s1,p24,IIIB,CEM,EC50,,,<10 µM
COCCNC(=O)c1c(O)c2ncc(Cc3ccc(F)cc3)c3c2n(c1=O)C[C@H](CN1CCN(S(C)(=O)=O)CC1)O3,ATP / luminescence,IIIB,MT-2,EC50,,,0.0097 µM
CCOC(=O)c1cc(NC(=O)C2=C(CC)OCCS2)ccc1Cl,syncytia,TSAO-resistant (RT E138K),CEM,EC50,,RT-E138K,1.9 µg/mL
COc1ccccc1C(=S)Nc1ccc(Cl)c(C(=O)OC2CCCC2)c1,syncytia,,CEM,EC50,,RT-E138K,1.5 µM
CCCCCOC(=O)c1cc(NC(=O)C2=C(C)OCCS2)ccc1Cl,syncytia,IIIB,CEM,EC50,,,0.6 µg/mL
COc1ccc(N(C)C(=O)[C@H](Cc2ccccc2)Nc2ncnc(N[C@@H](Cc3ccccc3)C(=O)N(C)c3ccc(OC)cc3)n2)cc1,luciferase,NL4-3,MT-2,EC50,,,6.87 µM
CC(C)OC(=O)c1cc(NC(=S)c2ccccc2N)ccc1Cl,syncytia,,CEM,EC50,,RT-L100I,13 µM
NC(=O)C[C@H](NC(=O)c1ccc2ccccc2n1)C(=O)N[C@@H](Cc1ccccc1)[C@H](O)CN(Cc1ccccc1)S(=O)(=O)c1cccc2nonc12,p24,IIIB,CEM,EC50,,,<1 µM
CC1=C(C(=O)Nc2cccc(C(=O)OC(C)C)c2)SCCO1,syncytia,PYR-resistant (RT Y181C),CEM,EC50,,RT-Y181C,>10 µg/mL
CCc1c(Sc2ccccc2)n(COCc2ccccc2)c(=S)[nH]c1=O,syncytia,IIIB TIBO R82913-resistant (RT K103N),CEM,EC50,,RT-K103N,0.65 µM
O=C(C(=O)N1CCN(C(=O)c2ccccc2)CC1)c1c[nH]c2c(Br)ccc(OC(F)(F)F)c12,luciferase,,HeLa + HELA CD4+/CCR5,EC50,,,<10 µM
O=C(N[C@@H](Cc1ccccc1)[C@H](O)CN(CC1CCCC1)S(=O)(=O)c1ccc(O)cc1)O[C@@H]1CCOC1,p24,IIIB,CEM,EC90,,,≤0.1 µM
CC1=C(C(=O)Nc2ccc(Cl)c(C(=O)OC3CCCCC3C)c2)SCCO1,syncytia,TIBO-resistant (RT L100I),CEM,EC50,,RT-L100I,3.5 µg/mL
Cc1ccc(-c2ccc(NC(=O)N3CCC4(CCO4)CC3)cc2)cc1,luminescence,X1632,TZM-bl,EC50,pseudotyped,,>30 µM
Cc1cc(C)cc(Sc2c(C(C)C)c(=O)[nH]c(=S)n2COCCO)c1,syncytia,IIIB,CEM,EC50,,,0.006 µM
CCC(CC)OC(=O)c1cc(NC(=S)c2ccccc2N)ccc1Cl,syncytia,IIIB,CEM,EC50,,,1.9 µM
COc1ccc(N(C)C(=O)[C@H](Cc2ccccc2)NC(=O)CNC(=O)NCC(=O)N[C@@H](Cc2ccccc2)C(=O)N(C)c2ccc(OC)cc2)cc1,luciferase,NL4-3,MT-2,EC50,,,1.42 µM
CC(C)c1c(Sc2ccccc2)n(COCCO)c(=O)[nH]c1=O,syncytia,IIIB,CEM,EC50,,RT-Y181C,5.5 µM
CC(C)CN(C[C@@H](O)[C@H](Cc1ccccc1)NC(=O)O[C@H]1CCOC1)S(=O)(=O)c1ccc(F)c(F)c1,p24,IIIB,CEM,EC50,,,<40 µM
Cn1cccc1C(=S)Nc1ccc(Cl)c(/C=N/OC(C)(C)C)c1,syncytia,,CEM,EC50,,RT-K103N,0.476 µM
C#C[C@@]1(CO)C=C[C@H](n2cc(C)c(=O)[nH]c2=O)O1,recombinant virus assay,Clinical isolate,MT-2,EC50,,M41L/D67N/K70R/Y184V/L210W/T215Y/K219E,4.522 µM
COCC1=C(C(=O)Nc2ccc(Cl)c(C(=O)OC(C)C)c2)SCCO1,syncytia,PYR-resistant (RT Y181C),CEM,EC50,,RT-Y181C,>10 µg/mL
COc1cc(-c2ccc(N=Nc3ccc4c(S(=O)(=O)O)cc(S(=O)(=O)O)c(N)c4c3O)c(OC)c2)ccc1N=Nc1ccc2c(S(=O)(=O)O)cc(S(=O)(=O)O)c(N)c2c1O,cytopathic effect / XTT,SKI,CEM + CEM-SS,EC50,,,1.6 µM
COc1ccc(N(C)C(=O)[C@H](Cc2cc(F)cc(F)c2)NC(=O)Cn2c(=O)n(CC(=O)N[C@@H](Cc3cc(F)cc(F)c3)C(=O)N(C)c3ccc(OC)cc3)c3ccccc32)cc1,luciferase,NL4-3,MT-2,EC50,,,0.02 µM
CC1=C(C(=O)N(C)c2ccc(Cl)c(C(=O)OC(C)C)c2)SCCO1,syncytia,Nevirapine-resistant (RT V106A),CEM,EC50,,RT-V106A,>10 µg/mL